Pooled drug test results. Numbers come from NIAID ChemDB, via PubChem.

Shared fields: whole-cell or culture tests

An empty or dashed field is not shown. ECn: concentration that inhibits the pathogen or its effect by n%. Percent inhibition refers to the dose given; in toxicity tests it is the harm to the cells. MIC50, MIC90 and the like: level of inhibition, or share of isolates inhibited. Lines come from different laboratories, so protocols vary.

smiles	method	strain	mutations	read-out	cell line	tested at	organism	result
CN[C@@H]1[C@H](O[C@H]2[C@H](O[C@H]3[C@H](O)[C@@H](O)[C@H](N=C(N)N)[C@@H](O)[C@@H]3N=C(N)N)O[C@@H](C)[C@]2(O)C=O)O[C@@H](CO)[C@H](O)[C@H]1O	-	ESBL-75799	-	MIC	-	-	Klebsiella pneumoniae	25 µg/mL
Nc1ccn([C@@H]2C[C@H](CO)[C@@H](O)[C@H]2O)c(=O)n1	cytopathic effect	-	-	EC50	HK	-	Vesicular stomatitis virus	85 µg/mL
CC[C@H]1OC(=O)[C@H](C)[C@@H](O[C@H]2C[C@@](C)(OC)[C@@H](O)[C@H](C)O2)[C@H](C)[C@@H](O[C@@H]2O[C@H](C)C[C@H](N(C)C)[C@H]2O)[C@](C)(OC)C[C@@H](C)C(=O)[C@H](C)[C@@H](O)[C@]1(C)O	broth dilution	X14	-	MIC	-	-	Mycobacterium massiliense	8 µg/mL
COc1ccc(C(F)(F)F)cc1NCc1cnc2nc(N)nc(N)c2c1C	-	-	-	inhibition	RK-13	0.01 µg/mL	Encephalitozoon intestinalis	5.3%
COc1cc(C[C@H](C)[C@H](C)Cc2ccc(O)c(O)c2)ccc1O	broth dilution	CCC 129-2000	-	MIC50	-	-	Candida albicans	31.25 µg/mL
CC(=O)Oc1ccccc1C(=O)Nc1ncc([N+](=O)[O-])s1	-	-	-	inhibition	RK-13	0.01 µg/mL	Vittaforma corneae	25.7%
CN(C)c1cc(NC(=O)CNC(C)(C)C)c(O)c2c1C[C@H]1C[C@H]3[C@H](N(C)C)C(=O)C(C(N)=O)=C(O)[C@@]3(O)C(=O)C1=C2O	broth dilution	X6	-	MIC	-	-	Mycobacterium abscessus	1 µg/mL
C=CCc1ccc(O)c(-c2ccc(O)c(CC=C)c2)c1	broth dilution	YL 318	-	MIC	-	-	Candida albicans	64 µg/mL
CC(=O)N[C@H]1[C@@H](O[C@@H]2O[C@H](C[C@@H](O)[C@H]3O[C@@H](n4ccc(=O)[nH]c4=O)[C@H](O)[C@@H]3O)[C@H](O)[C@H](O)[C@H]2NC(=O)/C=C/CC(C)C)O[C@H](CO)[C@@H](O)[C@@H]1O	-	-	-	inhibition	RK-13	0.1 µg/mL	Encephalitozoon intestinalis	56.9%
C#CC[C@@H](C(=O)N[C@H](/C=C/C(=O)OCC)C[C@@H]1CCNC1=O)n1cccc(NC(=O)c2cc(C)on2)c1=O	cytopathic effect / XTT	Clinical isolate T (serotype 16)	-	inhibition	H1-HELA	0.145 µM	Rhinovirus	90%
O=C(NC(=O)c1c(F)cccc1F)Nc1cc(Cl)c(OC(F)(F)C(F)C(F)(F)F)cc1Cl	-	-	-	inhibition	RK-13	1.25 µg/mL	Encephalitozoon intestinalis	3.5%
CC1COc2c(N3CCN(C)CC3)c(F)cc3c(=O)c(C(=O)O)cn1c23	-	10 strains (oxacillin-resistant)	-	MIC50	-	-	Staphylococcus aureus	4 µg/mL
CCCSc1ccc2nc(NC(=O)OC)[nH]c2c1	-	-	-	inhibition	RK-13	0.1 µg/mL	Vittaforma corneae	86.7%
CN(C)[C@@H]1C(=O)C(C(N)=O)=C(O)[C@@]2(O)C(=O)C3=C(O)c4c(O)c(NC(=O)CN5CCOCC5)cc(F)c4C[C@H]3C[C@@H]12	agar diffusion	161-MRS tet	-	MIC	-	-	Staphylococcus aureus	8 µg/mL
CC(C)=CCN1c2cc(Cl)cc3[nH]c(=S)n(c23)C[C@@H]1C	-	-	RT-K70R Y181C	EC95	MT-4	-	HIV-1	12.5 µM
CCO/N=C/c1ccc(OCCC2CCN(c3ccc(C)nn3)CC2)cc1	neutral red	5146 (ICAM-1 receptor group 24)	-	EC50	KB	-	Rhinovirus	0.016 µM

Again, the opening 2 rows:

smiles,method,strain,mutations,read-out,cell line,tested at,organism,result
CN[C@@H]1[C@H](O[C@H]2[C@H](O[C@H]3[C@H](O)[C@@H](O)[C@H](N=C(N)N)[C@@H](O)[C@@H]3N=C(N)N)O[C@@H](C)[C@]2(O)C=O)O[C@@H](CO)[C@H](O)[C@H]1O,-,ESBL-75799,-,MIC,-,-,Klebsiella pneumoniae,25 µg/mL
Nc1ccn([C@@H]2C[C@H](CO)[C@@H](O)[C@H]2O)c(=O)n1,cytopathic effect,-,-,EC50,HK,-,Vesicular stomatitis virus,85 µg/mL